From US10058612B2, “Impaired energy processing disorders and mitochondrial deficiency” (priority 2011, dated 2018) come the findings set out here.

This data set deals with WT (W303) yeast. Conditions: 200 μM, 4 h incubation.

For `CC/C=C\C/C=C\C/C=C\CCCCCCCC(=O)O` [ALA, cis,cis,cis-9,12,15-Octadecatrienoic acid, reference compound], the “incorporation of fatty acid by yeast” value is reported as “avidly incorporate”.
